A mixed list of measured activities; the numbers were collected in NIAID ChemDB.

Shared fields: enzyme or target tests; species: HIV; protein: Reverse transcriptase; measure: IC50

Conditions beyond the fields shown may differ between rows.

compound	read by	strain	changes	result
CCc1c(Sc2ccccc2)n(COCc2ccccc2)c(=O)[nH]c1=O	RT activity		RT-V90A	0.1 µM
Cc1c(C(C)c2c(F)cccc2F)nc(NC2CCCC2)[nH]c1=O	nucleotide incorporation / radiometric		V179D	0.3 µM
COc1ccccc1N1CCN(C(=O)c2cc3cc4c(cc3[nH]2)OCO4)CC1			RT-Y181C P236L	>50 µM
NS(=O)(=O)c1ccc(CCNC(=O)Cc2cccs2)cc1	nucleotide incorporation			2 µM
Cc1cn([C@@H]2O[C@H](CO[Si](C)(C)C(C)(C)C)C3(OS(=O)(=O)C=C3N)[C@H]2O[Si](C)(C)C(C)(C)C)c(=O)n(C)c1=O	RT activity		RT-V106A P225H	>828 µM
CC(C)Nc1cccnc1N1CCN(C(=O)c2cc3ccccc3[nH]2)CC1	nucleotide incorporation		RT-E138K	1 µM
O=c1[nH]cnc2c1ncn2[C@H]1CC[C@@H](CO)O1	RT activity		RT-L74V M184V	4.4 µM
C#CC1(COP(=O)(O)OP(=O)(O)OP(=O)(O)O)CCC(n2ccc(N)nc2=O)O1	nucleotide incorporation / radiometric			0.05 µM
COc1ccc2c(c1)N(C(=O)OC(C)C)[C@@H](CSC)C(=S)N2	RT activity		RT-D67N K70R T215F K219Q K103N	0.077 µg/mL
CCOc1ccccc1N1CCN(C(=O)c2cc3ccccc3[nH]2)CC1			RT-Y181C P236L	>50 µM
Cc1cn([C@@H]2O[C@H](CO[Si](C)(C)C(C)(C)C)C3(OS(=O)(=O)C=C3N)[C@H]2O[Si](C)(C)C(C)(C)C)c(=O)n(C)c1=O	nucleotide incorporation / radiometric		RT-N137T	0.3 µM
Cc1cn([C@@H]2O[C@H](CO[Si](C)(C)C(C)(C)C)[C@@]3(OS(=O)(=O)C=C3N)[C@H]2O[Si](C)(C)C(C)(C)C)c(=O)[nH]c1=O	nucleotide incorporation		RT-E138K	>155 µM
O=C1c2ccccc2C2(c3ccccc3)SCCN12	ELISA		RT-Y188L	140 µM
C[C@H](Cn1cnc2c(N)ncnc21)OCP(=O)(O)OP(=O)(O)OP(=O)(O)O			RT-K65R	0.8 µM
CC[C@]1(c2ccccc2)Oc2cccnc2-n2cccc2C1=O	nucleotide incorporation / radiometric	MDR	RT-M41L K103N T215Y	3.5 µM
Cc1c(Sc2ccccc2)n(COCCO)c(=O)[nH]c1=O			RT-K103N Y181I Y188L	>5 µM
C/C=C/CSc1cc(NC(=S)c2ccsc2C)ccc1Cl				8 µM
Nc1ncnc2c1ncn2[C@@H]1O[C@H](OCP(=O)(O)OP(=O)(O)OP(=O)(O)O)C=C1F				2.3 µM
CC(C)=CCN1Cc2cccc3[nH]c(=S)n(c23)C[C@@H]1C	nucleotide incorporation			9.83 µM
CO[P@](=O)(c1cc(C)cc(/C=C/C#N)c1)c1c(C(N)=O)[nH]c2ccc(Cl)cc12			M184V	0.17 µM
Nc1ccn([C@H]2CC[C@@H](COP(=O)(O)OP(=O)(O)OP(=O)(O)O)O2)c(=O)n1			RT-K65R S68G	12.6 µM
CC(=O)c1ccc(C)cc1NC(C(N)=O)c1c(Cl)cccc1Cl	RT activity		RT-V106A P225H	16 µM
Cc1occc1C(=S)Nc1ccc(Cl)c(/C=N/OC(C)(C)C)c1				6.2 µM
Nc1nc2c(ncn2[C@H]2CC[C@@H](COP(=O)(O)OP(=O)(O)OP(=O)(O)O)O2)c(=O)[nH]1			RT-E138K(P51 ONLY)	0.015 µM
Cc1cn([C@H]2C=C[C@@H](COP(=O)(O)OP(=O)(O)OP(=O)(O)O)O2)c(=O)[nH]c1=O	nucleotide incorporation / radiometric			0.008 µM
Nc1ncnc2c1ncn2[C@H]1CC[C@@H](COP(=O)(O)OP(=O)(O)OP(=O)(O)O)O1			RT-K65R	29.9 µM
Nc1nc2c(ncn2[C@H]2CC[C@@H](COP(=O)(O)OP(=O)(O)OP(=O)(O)O)O2)c(=O)[nH]1	nucleotide incorporation		RT-E138K	0.609 µM
Cc1cc(C)cc([C@]23SCCN2C(=O)c2ccccc23)c1	ELISA		RT-Y188L	6.7 µM
CCc1c([Se]c2ccccc2)n(COCc2ccccc2)c(=O)[nH]c1=O	RT activity		RT-V90A	0.1 µM
Cc1cn([C@@H]2O[C@H](CO[Si](C)(C)C(C)(C)C)C3(OS(=O)(=O)C=C3N)[C@H]2O[Si](C)(C)C(C)(C)C)c(=O)n(C)c1=O			RT-E138K(P66 ONLY)	2.6 µM

Blank or dashed fields: not listed here. ICn: concentration for n% inhibition.